{"source": "PubChem BioAssay AID624099 (ICCB-Longwood, 2012)", "aim": "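Host factors E2 relies on to silence an HPV18 LCR reporter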 (primary screen)", "cell system": "human C33A cervical carcinoma cells (HPV-negative) stably expressing BPV1 E2 and an HPV18 LCR luciferase reporter", "knock-down reagent": "siRNA pool against human genes, 40 nM", "duration": "72 h", "measured": "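Per-well luciferase luminescence, z-scored on each plate against the plate mean and SD with control wells left out, then averaged across three replicate plates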", "reading the numbers": "mean z-score and z-score: higher = stronger reporter signal, weaker E2 silencing", "hit rule": "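Mean z ≥ 2 together with z ≥ 2 in two or more of the three replicates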", "note": "The whole screen tested about 21,000 reagents; shown is a random part of them. In the full data, 497 (2.4%) got an active call. 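Higher z means weaker E2 silencing; only reporter increases were scored, and knock-downs that hurt cell survival may mask genuine repressor factors.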 The numbers tell different reagents against one gene apart."}
{"gene": "SLC23A1", "pool no.": 1, "mean z-score": -0.14, "z-score, replicate A": 0.02, "z-score, replicate B": -0.14, "z-score, replicate C": -0.28, "Outcome": "inactive"}
{"gene": "CEP83 (centrosomal protein 83)", "pool no.": 1, "mean z-score": 0.9, "z-score, replicate A": 0.63, "z-score, replicate B": 1.08, "z-score, replicate C": 1, "Outcome": "inactive"}
{"gene": "GOLGA6L5P (golgin A6 family like 5, pseudogene)", "pool no.": 1, "mean z-score": 0.94, "z-score, replicate A": 0.99, "z-score, replicate B": 0.67, "z-score, replicate C": 1.17, "Outcome": "inactive"}
{"gene": "GOLGA6L5P (golgin A6 family like 5, pseudogene)", "pool no.": 2, "mean z-score": 2.74, "z-score, replicate A": 2.47, "z-score, replicate B": 2.7, "z-score, replicate C": 3.05, "Outcome": "active"}
{"gene": "BPIFA1 (BPI fold containing family A member 1)", "pool no.": 1, "mean z-score": -0.04, "z-score, replicate A": 0.45, "z-score, replicate B": -0.39, "z-score, replicate C": -0.18, "Outcome": "inactive"}
{"gene": "RAPGEF3 (Rap guanine nucleotide exchange factor 3)", "pool no.": 1, "mean z-score": 0.19, "z-score, replicate A": 0.41, "z-score, replicate B": 0.12, "z-score, replicate C": 0.04, "Outcome": "inactive"}
{"gene": "TCP11L2 (t-complex 11 like 2)", "pool no.": 1, "mean z-score": 0.49, "z-score, replicate A": 0.35, "z-score, replicate B": 0.74, "z-score, replicate C": 0.38, "Outcome": "inactive"}
{"gene": "GFPT1 (glutamine--fructose-6-phosphate transaminase 1)", "pool no.": 1, "mean z-score": -0.28, "z-score, replicate A": -0.27, "z-score, replicate B": -0.27, "z-score, replicate C": -0.31, "Outcome": "inactive"}
{"gene": "ZFYVE19 (zinc finger FYVE-type containing 19)", "pool no.": 1, "mean z-score": -0.91, "z-score, replicate A": -0.95, "z-score, replicate B": -0.87, "z-score, replicate C": -0.92, "Outcome": "inactive"}
{"gene": "DCAF17 (DDB1 and CUL4 associated factor 17)", "pool no.": 1, "mean z-score": -0.01, "z-score, replicate A": -0.28, "z-score, replicate B": -0.04, "z-score, replicate C": 0.28, "Outcome": "inactive"}
{"gene": "CANX (calnexin)", "pool no.": 1, "mean z-score": 1.22, "z-score, replicate A": 1.65, "z-score, replicate B": 0.66, "z-score, replicate C": 1.34, "Outcome": "inactive"}
{"gene": "RASAL1 (RAS protein activator like 1)", "pool no.": 1, "mean z-score": 0.2, "z-score, replicate A": 0.1, "z-score, replicate B": 0.61, "z-score, replicate C": -0.11, "Outcome": "inactive"}
{"gene": "SLC25A27", "pool no.": 1, "mean z-score": -1.44, "z-score, replicate A": -1.38, "z-score, replicate B": -1.5, "z-score, replicate C": -1.46, "Outcome": "inactive"}
{"gene": "KCNH1 (potassium voltage-gated channel subfamily H member 1)", "pool no.": 1, "mean z-score": -0.35, "z-score, replicate A": -0.44, "z-score, replicate B": -0.27, "z-score, replicate C": -0.34, "Outcome": "inactive"}
{"gene": "MAGOH (mago homolog, exon junction complex subunit)", "pool no.": 1, "mean z-score": -0.57, "z-score, replicate A": -0.45, "z-score, replicate B": -0.81, "z-score, replicate C": -0.47, "Outcome": "inactive"}
{"gene": "FAM27E5 (family with sequence similarity E5)", "pool no.": 1, "mean z-score": -0.18, "z-score, replicate A": -0.17, "z-score, replicate B": -0.32, "z-score, replicate C": -0.06, "Outcome": "inactive"}
{"gene": "FAM87A (family with sequence similarity 87 member A)", "pool no.": 1, "mean z-score": -0.11, "z-score, replicate A": -0.56, "z-score, replicate B": 0.19, "z-score, replicate C": 0.05, "Outcome": "inactive"}
{"gene": "TINAGL1 (tubulointerstitial nephritis antigen like 1)", "pool no.": 1, "mean z-score": -1.15, "z-score, replicate A": -1.12, "z-score, replicate B": -0.65, "z-score, replicate C": -1.69, "Outcome": "inactive"}
{"gene": "IMPG1 (interphotoreceptor matrix proteoglycan 1)", "pool no.": 1, "mean z-score": 0.56, "z-score, replicate A": 0.64, "z-score, replicate B": 0.39, "z-score, replicate C": 0.65, "Outcome": "inactive"}
{"gene": "RNASE1 (ribonuclease A family member 1, pancreatic)", "pool no.": 1, "mean z-score": -0.1, "z-score, replicate A": -0.15, "z-score, replicate B": -0.03, "z-score, replicate C": -0.12, "Outcome": "inactive"}
{"gene": "LOC388438 (retired record)", "pool no.": 1, "mean z-score": -0.14, "z-score, replicate A": -0.04, "z-score, replicate B": -0.45, "z-score, replicate C": 0.07, "Outcome": "inactive"}
